Where a protein sequence is shown, tags need not be part of it.
How the values were obtained:
[1] = target: T1, DcuR-His6 (UniProt P0AD02); assay: competition with a labelled probe; conditions: unlabeled DNA 0.5-5 uM against FAM-PLEE1; recombinant protein; residues 1-239; protein details: His6 (pET-28a); probe letters rebuilt from the primers and the genome
T1 sequence (looked up): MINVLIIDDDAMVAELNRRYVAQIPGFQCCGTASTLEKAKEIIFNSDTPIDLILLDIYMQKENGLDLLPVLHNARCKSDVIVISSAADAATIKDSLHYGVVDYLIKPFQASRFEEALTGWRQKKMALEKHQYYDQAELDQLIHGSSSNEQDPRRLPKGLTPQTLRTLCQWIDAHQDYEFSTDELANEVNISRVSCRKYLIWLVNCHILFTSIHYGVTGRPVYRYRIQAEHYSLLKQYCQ

[2] = target: T1, DcuR-His6; assay: EMSA; conditions: 50 nM probe, 0-4 uM DcuR; recombinant protein; residues 1-239; protein details: His6 (pET-28a); label: 5'-FAM; probe letters rebuilt from the primers and the genome

Sequence	binding result [1]	binding result [2]
TCCTGGGGATTCACTCGCTTGCCGCCTTCCTGTAACTCGAATTAAGTAGAGTATAGTGAAACGGTTCAGCTTGGTTTTTATTCTGTTTTATTTGTTTATGCAATGAGATCTATCTTATAAAGAGAAACGCTTAACTAAATGGAAATGCAATTATTAAAGTCGTTTGTTAACGAGATGATTTTCTTCTATATCATTGATTTTAAATGGATTTTAAAAATATATGATTTTTTTGTTGACATTTAATGATAATGTATTTTACACATTAGAAAAAAGAGAATAATAACATTTTAAGGTGGTTGTTTGATGAAATAGATGTGTCCTAATTTGATAGATAAACGTTATCTCACATAATTTATATCATTTGATTAATTGTTGGTCCTTCCTGATAAGGTCGCTAATAGCTTAAAATATTAAAGCATGCGGAGATTATTTATTATGA (double strand) [PLEE1 unlabeled]	binds	–
TCCTGGGGATTCACTCGCTTGCCGCCTTCCTGTAACTCGAATTAAGTAGAGTATAGTGAAACGGTTCAGCTTGGTTTTTATTCTGTTTTATTTGTTTATGCAATGAGATCTATCTTATAAAGAGAAACGCTTAACTAAATGGAAATGCAATTATTAAAGTCGTTTGTTAACGAGATGATTTTCTTCTATATCATTGATTTTAAATGGATTTTAAAAATATATGATTTTTTTGTTGACATTTAATGATAATGTATTTTACACATTAGAAAAAAGAGAATAATAACATTTTAAGGTGGTTGTTTGATGAAATAGATGTGTCCTAATTTGATAGATAAACGTTATCTCACATAATTTATATCATTTGATTAATTGTTGGTCCTTCCTGATAAGGTCGCTAATAGCTTAAAATATTAAAGCATGCGGAGATTATTTATTATGA (double strand) [PLEE1]	–	binds
